Results on 8 molecules are retold here after article PMC5374441 (Scientific Reports, 2017).

By UniProt entry, the sequences of proteins in these tests, tags left out. Residues count along the entry.
UniProt P36544, 23-502 limits assumed: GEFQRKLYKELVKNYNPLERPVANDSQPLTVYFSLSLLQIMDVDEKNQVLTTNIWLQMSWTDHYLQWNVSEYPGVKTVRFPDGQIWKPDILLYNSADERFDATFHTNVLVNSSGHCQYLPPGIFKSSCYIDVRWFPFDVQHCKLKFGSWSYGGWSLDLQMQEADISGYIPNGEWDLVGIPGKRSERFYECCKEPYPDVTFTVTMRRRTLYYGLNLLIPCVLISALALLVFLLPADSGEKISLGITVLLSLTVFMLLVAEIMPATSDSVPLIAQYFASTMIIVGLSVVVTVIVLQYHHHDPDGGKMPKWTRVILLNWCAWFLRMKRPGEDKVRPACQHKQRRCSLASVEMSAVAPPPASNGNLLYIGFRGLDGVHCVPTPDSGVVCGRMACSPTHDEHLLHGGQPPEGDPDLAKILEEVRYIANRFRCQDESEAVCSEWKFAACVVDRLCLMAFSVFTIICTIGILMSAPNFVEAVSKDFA
UniProt P30926, 22-498 limits assumed: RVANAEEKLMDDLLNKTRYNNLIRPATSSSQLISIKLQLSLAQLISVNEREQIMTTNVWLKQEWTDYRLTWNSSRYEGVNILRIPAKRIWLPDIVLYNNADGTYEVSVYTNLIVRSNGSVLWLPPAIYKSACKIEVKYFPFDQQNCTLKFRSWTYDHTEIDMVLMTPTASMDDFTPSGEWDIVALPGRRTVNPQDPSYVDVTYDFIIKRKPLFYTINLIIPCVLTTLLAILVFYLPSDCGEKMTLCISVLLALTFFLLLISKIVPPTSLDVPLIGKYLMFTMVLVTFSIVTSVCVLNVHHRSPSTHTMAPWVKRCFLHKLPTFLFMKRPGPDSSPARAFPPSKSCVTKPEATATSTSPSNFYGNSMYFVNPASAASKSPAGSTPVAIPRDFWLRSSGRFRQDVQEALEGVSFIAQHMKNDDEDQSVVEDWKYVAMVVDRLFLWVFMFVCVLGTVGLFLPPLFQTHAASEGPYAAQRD
UniProt P32297, 32-505 limits assumed: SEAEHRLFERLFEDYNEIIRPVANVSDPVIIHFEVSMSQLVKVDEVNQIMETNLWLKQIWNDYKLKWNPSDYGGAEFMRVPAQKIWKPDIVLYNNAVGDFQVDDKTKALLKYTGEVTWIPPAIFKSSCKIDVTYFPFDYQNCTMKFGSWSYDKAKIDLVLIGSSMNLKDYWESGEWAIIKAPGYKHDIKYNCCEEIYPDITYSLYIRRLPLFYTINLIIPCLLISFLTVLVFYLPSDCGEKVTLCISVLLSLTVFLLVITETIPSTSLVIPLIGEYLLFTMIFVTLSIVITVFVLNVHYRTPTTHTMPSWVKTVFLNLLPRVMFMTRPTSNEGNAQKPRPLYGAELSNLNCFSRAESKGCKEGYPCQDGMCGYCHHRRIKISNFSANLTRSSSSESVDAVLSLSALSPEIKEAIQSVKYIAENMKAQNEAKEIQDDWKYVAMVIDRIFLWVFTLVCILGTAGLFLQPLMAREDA

One assay has as its target human α7 nAChR (Homo sapiens, UniProt P36544). As to the kind of experiment: FLIPR calcium assay, choline-activated α7 nAChR in SH-SY5Y cells. Type of assay: cell-based.
A further assay deals with human α3β4 nAChR (Homo sapiens, UniProt P30926+P32297). The experiment in a line: FLIPR calcium assay, nicotine-activated α3β4 nAChR in SH-SY5Y cells. Conditions: for selectivity for α3β4 over α7 nAChR: ratio of potencies at α7 and α3β4 in SH-SY5Y cells. The class given is cell-based.

Where only a bound is given, the exact number is not on record here.

`CC[C@H](C)[C@@H]1NC(=O)[C@H](CC(N)=O)NC(=O)[C@@H]2CCCN2C(=O)[C@H](CC(N)=O)NC(=O)[C@H](CC(C)C)NC(=O)[C@H](C(C)C)NC(=O)[C@H](Cc2ccccc2)NC(=O)[C@@H]2CSSC[C@H](NC(=O)CNC(=O)[C@@H](N)CO)C(=O)N[C@@H](CSSC[C@@H](C(N)=O)NC1=O)C(=O)N[C@@H](CO)C(=O)N[C@@H](CC(N)=O)C(=O)N1CCC[C@H]1C(=O)N[C@@H](C)C(=O)N2`: the results for the IC50 at human α7 nAChR and at human α3β4 nAChR were greater than 100000 nM and 410 nM, respectively. Moreover, the “selectivity for α3β4 over α7 nAChR” value at human α3β4 nAChR (FLIPR calcium) is on record as greater than 250 fold.

For `CC[C@H](C)[C@@H]1NC(=O)[C@H](CC(N)=O)NC(=O)[C@@H]2CCCN2C(=O)[C@H](CC(N)=O)NC(=O)[C@H](CC(N)=O)NC(=O)[C@H](C(C)C)NC(=O)[C@H](CCCNC(=N)N)NC(=O)[C@@H]2CSSC[C@H](NC(=O)CNC(=O)[C@@H](N)CO)C(=O)N[C@@H](CSSC[C@@H](C(N)=O)NC1=O)C(=O)N[C@@H](CO)C(=O)N[C@@H](Cc1c[nH]cn1)C(=O)N1CCC[C@H]1C(=O)N[C@@H](C)C(=O)N2`, the 50% inhibitory concentration (IC50) is 40 nM at human α7 nAChR and greater than 10000 nM on human α3β4 nAChR. Besides, on human α3β4 nAChR (SH-SY5Y cells, FLIPR calcium), the “activity at α3β4 (in words)” value was “inactive”.

For `CC[C@H](C)[C@@H]1NC(=O)[C@H](CC(N)=O)NC(=O)[C@@H]2CCCN2C(=O)[C@H](CC(N)=O)NC(=O)[C@H](CC(=O)O)NC(=O)[C@H](C(C)C)NC(=O)[C@H](CCCNC(=N)N)NC(=O)[C@@H]2CSSC[C@H](NC(=O)CNC(=O)[C@@H](N)CO)C(=O)N[C@@H](CSSC[C@@H](C(N)=O)NC1=O)C(=O)N[C@@H](CO)C(=O)N[C@@H](CC(N)=O)C(=O)N1CCC[C@H]1C(=O)N[C@@H](C)C(=O)N2` [N12D-LsIA], the IC50 at human α7 nAChR and on human α3β4 nAChR was greater than 10000 nM in each case.

`CC[C@H](C)[C@@H]1NC(=O)[C@H](CC(N)=O)NC(=O)[C@@H]2CCCN2C(=O)[C@H](CC(N)=O)NC(=O)[C@H](CC(C)C)NC(=O)[C@H](C(C)C)NC(=O)[C@H](CCCNC(=N)N)NC(=O)[C@@H]2CSSC[C@H](NC(=O)CNC(=O)[C@@H](N)CO)C(=O)N[C@@H](CSSC[C@@H](C(N)=O)NC1=O)C(=O)N[C@@H](CO)C(=O)N[C@@H](CC(N)=O)C(=O)N1CCC[C@H]1C(=O)N[C@@H](C)C(=O)N2` [N12L-LsIA]: the IC50 is 25700 nM at human α7 nAChR and 630 nM on human α3β4 nAChR. Also, the “selectivity for α3β4 over α7 nAChR” value at human α3β4 nAChR (FLIPR calcium) worked out at 40 fold.

Consider `CC[C@H](C)[C@@H]1NC(=O)[C@H](CC(N)=O)NC(=O)[C@@H]2CCCN2C(=O)[C@H](CC(N)=O)NC(=O)[C@H](CCC(N)=O)NC(=O)[C@H](C(C)C)NC(=O)[C@H](CCCNC(=N)N)NC(=O)[C@@H]2CSSC[C@H](NC(=O)CNC(=O)[C@@H](N)CO)C(=O)N[C@@H](CSSC[C@@H](C(N)=O)NC1=O)C(=O)N[C@@H](CO)C(=O)N[C@@H](CC(N)=O)C(=O)N1CCC[C@H]1C(=O)N[C@@H](C)C(=O)N2` [N12Q-LsIA], for which the results for the IC50 on human α7 nAChR and on human α3β4 nAChR were 980 nM and greater than 10000 nM, respectively.

As to `CC[C@H](C)[C@@H]1NC(=O)[C@H](CC(N)=O)NC(=O)[C@@H]2CCCN2C(=O)[C@H](CC(N)=O)NC(=O)[C@H](CC(N)=O)NC(=O)[C@H](C(C)C)NC(=O)[C@H](CC(=O)O)NC(=O)[C@@H]2CSSC[C@H](NC(=O)CNC(=O)[C@@H](N)CO)C(=O)N[C@@H](CSSC[C@@H](C(N)=O)NC1=O)C(=O)N[C@@H](CO)C(=O)N[C@@H](CC(N)=O)C(=O)N1CCC[C@H]1C(=O)N[C@@H](C)C(=O)N2` [R10D-LsIA], the IC50 on human α7 nAChR and at human α3β4 nAChR was greater than 10000 nM each time. For the same molecule, the “activity at α7 (in words)” value on human α7 nAChR (SH-SY5Y cells, FLIPR calcium) is “inactive”.

For `CC[C@H](C)[C@@H]1NC(=O)[C@H](CC(N)=O)NC(=O)[C@@H]2CCCN2C(=O)[C@H](CC(N)=O)NC(=O)[C@H](CC(N)=O)NC(=O)[C@H](C(C)C)NC(=O)[C@H](Cc2ccccc2)NC(=O)[C@@H]2CSSC[C@H](NC(=O)CNC(=O)[C@@H](N)CO)C(=O)N[C@@H](CSSC[C@@H](C(N)=O)NC1=O)C(=O)N[C@@H](CO)C(=O)N[C@@H](CC(N)=O)C(=O)N1CCC[C@H]1C(=O)N[C@@H](C)C(=O)N2` [R10F-LsIA], the IC50 on human α3β4 nAChR came to 440 nM.

Regarding `CC[C@H](C)[C@@H]1NC(=O)[C@H](CC(N)=O)NC(=O)[C@@H]2CCCN2C(=O)[C@H](CC(N)=O)NC(=O)[C@H](CC(N)=O)NC(=O)[C@H](C(C)C)NC(=O)[C@H](CCSC)NC(=O)[C@@H]2CSSC[C@H](NC(=O)CNC(=O)[C@@H](N)CO)C(=O)N[C@@H](CSSC[C@@H](C(N)=O)NC1=O)C(=O)N[C@@H](CO)C(=O)N[C@@H](CC(N)=O)C(=O)N1CCC[C@H]1C(=O)N[C@@H](C)C(=O)N2` [R10M-LsIA], the results for the IC50 at human α7 nAChR and on human α3β4 nAChR were 2420 nM and 440 nM, respectively. The “selectivity for α3β4 over α7 nAChR” value on human α3β4 nAChR (FLIPR calcium) came out at 5 fold.

A word on the IC50: it is the point on the concentration scale where inhibition reaches its midpoint.
